# Measurements as given in patent US20250064988A1, “MRI-AGENT LOADED PLATELET COMPOSITIONS AND METHODS OF PREPARING AND USING THE SAME” (Cellphire, Inc., priority 2022, published 2025).
# System: platelets
# Assay: Example 10 flow cytometry MFI in the FITC channel
# Assay type: cell-based, human
# Details: 50 μM loading
substance,measurement,setting,value
"TAT-FITC-DOTA-GD: DOTA chelated gadolinium TAT-peptide with FITC label; TAT sequence [K]LRKKRRQRRR (SEQ ID NO: 2) (KLRKKRRQRRR; FITC label, DOTA-gadolinium chelate; TAT Functional Fragment)","FITC fluorescence, cryopreserved platelets versus FDPDs",,decreased from cryopreservation to FDPDs
same,mean fluorescence intensity (MFI) in the FITC channel,unloaded product subtracted as background,low
